Measured values from several laboratories, pooled; numbers as filed in NIAID ChemDB.

Shared fields: toxicity to cultured cells; cell line: MT-4; endpoint: CC50

An empty or dashed field is not shown. CCn is the concentration with n% toxicity to the cells. Conditions beyond the fields shown may differ between rows.

compound	read by	value
COCCOCCOCCOCCO[C@@H]1O[C@H](COS(=O)(=O)O)[C@@H](OS(=O)(=O)O)[C@H](O[C@@H]2O[C@H](COS(=O)(=O)O)[C@@H](OS(=O)(=O)O)[C@H](O[C@@H]3O[C@H](COS(=O)(=O)O)[C@@H](OS(=O)(=O)O)[C@H](O[C@@H]4O[C@H](COS(=O)(=O)O)[C@@H](OS(=O)(=O)O)[C@H](O[C@@H]5O[C@H](COS(=O)(=O)O)[C@@H](OS(=O)(=O)O)[C@H](OS(=O)(=O)O)[C@H]5OS(=O)(=O)O)[C@H]4OS(=O)(=O)O)[C@H]3OS(=O)(=O)O)[C@H]2OS(=O)(=O)O)[C@H]1OS(=O)(=O)O		>1000 µg/mL
CCOC(=O)c1cc2c3cc(OC)ccc3c3ccc(N=[N+]=[N-])cc3n2c1C		>300 µM
CN1CCn2c(nc(C(=O)NCc3ccc(F)cc3)c(O)c2=O)C(NC(=O)C(=O)N(C)C)C1	microscopy	>1 µM
Cc1cc(C)cc(N2C(=O)CSC2c2c(F)cccc2F)c1		36.2 µM
N#Cc1cc2[nH]c3ccccc3c2n(-c2ccc([N+](=O)[O-])cc2)c1=O	MTT	>32 µM
COc1c(-c2cc(C)n(C)n2)c(O)c(S(=O)(=O)Oc2ccc([N+](=O)[O-])cc2)c2occc12	MTT	140 µM
COc1cccc(-c2cc(C(C)=O)c(C)n2-c2cccc(N)c2)c1		10.2 µM
CC(C)[C@@H]1CC[C@@H](C)C[C@H]1O[C@@H]1O[C@H](COS(=O)(=O)O)[C@@H](OS(=O)(=O)O)[C@H](O[C@@H]2O[C@H](COS(=O)(=O)O)[C@@H](OS(=O)(=O)O)[C@H](O[C@@H]3O[C@H](COS(=O)(=O)O)[C@@H](OS(=O)(=O)O)[C@H](O[C@@H]4O[C@H](COS(=O)(=O)O)[C@@H](OS(=O)(=O)O)[C@H](O[C@@H]5O[C@H](COS(=O)(=O)O)[C@@H](OS(=O)(=O)O)[C@H](OS(=O)(=O)O)[C@H]5OS(=O)(=O)O)[C@H]4OS(=O)(=O)O)[C@H]3OS(=O)(=O)O)[C@H]2OS(=O)(=O)O)[C@H]1OS(=O)(=O)O		>1000 µg/mL
Nc1ncnc2c1ncn2[C@H]1C=C[C@@H](CO)O1		19 µM
O=C1CSC(c2c(F)cccc2Cl)N1c1cc(Cl)cc(Cl)c1		48.05 µM
CCOC(=O)c1cc(-c2cccc(OC)c2)n(-c2cccc(N)c2)c1C		7.2 µM
COc1c(C(=O)/C=C(/C)Nc2ccccc2)c(O)c(S(=O)(=O)Oc2ccc([N+](=O)[O-])cc2)c2occc12	MTT	410 µM
COc1ccc(-c2csc3nc4nc(-c5ccccn5)c(-c5ccccn5)nc4c(=O)n23)cc1	MTT / absorbance	18.99 µM
O=C(O)CCC(NC(=O)c1ccc(OCc2nc3ccccc3n3cccc23)cc1)C(=O)O	MTT	95 µM
COc1c(-c2cc(C)on2)c(O)c(S(=O)(=O)Oc2ccc([N+](=O)[O-])cc2)c2occc12	MTT	280 µM
CC(CO[C@@H]1O[C@H](COS(=O)(=O)O)[C@@H](OS(=O)(=O)O)[C@H](O[C@@H]2O[C@H](COS(=O)(=O)O)[C@@H](OS(=O)(=O)O)[C@H](O[C@@H]3O[C@H](COS(=O)(=O)O)[C@@H](OS(=O)(=O)O)[C@H](O[C@@H]4O[C@H](COS(=O)(=O)O)[C@@H](OS(=O)(=O)O)[C@H](O[C@@H]5O[C@H](COS(=O)(=O)O)[C@@H](OS(=O)(=O)O)[C@H](OS(=O)(=O)O)[C@H]5OS(=O)(=O)O)[C@H]4OS(=O)(=O)O)[C@H]3OS(=O)(=O)O)[C@H]2OS(=O)(=O)O)[C@H]1OS(=O)(=O)O)CC(C)(C)C		>1000 µg/mL
O=C1CSC(c2c(F)cccc2Cl)N1c1cccc(Cl)c1		30.1 µM
O=C(O)c1ccc(OCc2nc3ccccc3n3cccc23)cc1	MTT	8 µM
CSCC[C@H](C)OC(=O)[C@@H](N)c1ccccc1-c1c[nH]c2ccccc12	MTT	15 µM
CC(C)c1c(Cc2ccccc2)n(COCc2ccccc2)c(=O)[nH]c1=O	XTT	84.6 µM
O=C1CSC(c2c(F)cccc2F)N1c1cccc([N+](=O)[O-])c1		102 µM
O=c1[nH]cnc2ncc(-c3cccs3)nc12	MTT / absorbance	48.22 µM
Nc1ccn(C23C=C[C@@H](CO)[C@@H]2C3)c(=O)n1	MTT	61.8 µg/mL
Clc1nccc2nc(-c3ccccn3)c(-c3ccccn3)nc12	MTT / absorbance	67.36 µM
CC1(C)CC=C(c2cn(-c3nccc(C(=O)NC4CCC(N5CC6CCC(C5)O6)CC4)n3)c3ccc(F)c([C@H](OC(C)(C)C)C(=O)O)c23)CC1	luminescence	5.352 µM
CCc1c(-c2coc(CC/C(C)=C/c3ccccc3)n2)oc(OC)c(C)c1=O		66 µM
CCCCCCOCCOCCO[C@@H]1O[C@H](COS(=O)(=O)O)[C@@H](OS(=O)(=O)O)[C@H](O[C@@H]2O[C@H](COS(=O)(=O)O)[C@@H](OS(=O)(=O)O)[C@H](O[C@@H]3O[C@H](COS(=O)(=O)O)[C@@H](OS(=O)(=O)O)[C@H](O[C@@H]4O[C@H](COS(=O)(=O)O)[C@@H](OS(=O)(=O)O)[C@H](O[C@@H]5O[C@H](COS(=O)(=O)O)[C@@H](OS(=O)(=O)O)[C@H](OS(=O)(=O)O)[C@H]5OS(=O)(=O)O)[C@H]4OS(=O)(=O)O)[C@H]3OS(=O)(=O)O)[C@H]2OS(=O)(=O)O)[C@H]1OS(=O)(=O)O		>1000 µg/mL
COc1c(C(=O)/C=C(/C)Nc2ccc([N+](=O)[O-])cc2)c(O)c(S(=O)(=O)Oc2ccc(F)cc2)c2occc12	MTT	460 µM
Cc1cccc(N2C(=O)CSC2c2c(F)cccc2Cl)c1		32.44 µM
CCOC(=O)c1cc2c3cccc(N)c3c3ccc(OC)cc3n2c1C		>200 µM
S=c1nc[nH]c2nc(-c3ccccn3)c(-c3ccccn3)nc12	MTT / absorbance	115 µM
CC1(C)c2nc(C(=O)NCc3ccc(F)cc3)c(O)c(=O)n2CCN1CC(N)=O	microscopy	>1 µM
Cc1cc(C)cc(N2C(=O)CSC2c2c(F)cccc2Cl)c1		33.35 µM
COC1=NC=C[C@H](O)C(O[C@@H]2O[C@H](CO)[C@@H](O)[C@H](O)[C@H]2O)S1	MTT / absorbance	>100 µM
CC(C)(C)OC(C(=O)O)c1c(-c2ccc3c(c2)CCCO3)ccc2ccccc12	ATP	>50 µM
CC1(C)c2nc(C(=O)NCc3ccc(F)cc3)c(O)c(=O)n2CCN1Cc1ccn[nH]1	microscopy	>1 µM
CCCCCCO[C@@H]1O[C@H](COS(=O)(=O)O)[C@@H](OS(=O)(=O)O)[C@H](O[C@@H]2O[C@H](COS(=O)(=O)O)[C@@H](OS(=O)(=O)O)[C@H](O[C@@H]3O[C@H](COS(=O)(=O)O)[C@@H](OS(=O)(=O)O)[C@H](O[C@@H]4O[C@H](COS(=O)(=O)O)[C@@H](OS(=O)(=O)O)[C@H](OS(=O)(=O)O)[C@H]4OS(=O)(=O)O)[C@H]3OS(=O)(=O)O)[C@H]2OS(=O)(=O)O)[C@H]1OS(=O)(=O)O		>1000 µg/mL
O=C1CSC(c2c(F)cccc2Cl)N1c1cccc(Br)c1		30.1 µM
C#C[C@@]1(O)[C@@H](CO)O[C@@H](n2ccc(=O)[nH]c2=O)[C@@H]1O	MTT	0.03 µM
COc1ccc(OS(=O)(=O)c2c(O)c(-c3cc(C)on3)c(OC)c3ccoc23)cc1	MTT	250 µM
COc1ccc(Nc2nc3cc(C(F)(F)F)ccc3n3cccc23)cc1	MTT	>100 µM
Nc1[nH]c(=O)nc2nc(-c3ccccn3)c(-c3ccccn3)nc12	MTT / absorbance	75.34 µM
CCOC(=O)c1ccc(Nc2nc3cc(C(F)(F)F)ccc3n3cccc23)cc1	MTT	>100 µM
Cc1nc2ccccc2c(C2CCCCC2)c1C(OC(C)(C)C)C(=O)O	ATP	>50 µM
COc1c2ccoc2c(S(=O)(=O)OC2CCCCC2)c2oc(C)cc(=O)c12	MTT	610 µM
COc1ccc(Nc2nc3cc(C(F)(F)F)ccc3n3cccc23)cc1OC	MTT	27 µM
CCc1c(Cc2ccc(Cl)cc2)n(COCc2ccccc2)c(=O)[nH]c1=O		>100 µM
CCOC(=O)c1cc(-c2cccc(N)c2)n(-c2cccc(OC)c2)c1C		32 µM
CCN1CCn2c(nc(C(=O)NCc3ccc(F)c(C)c3)c(O)c2=O)C(N(C)C(=O)C(=O)N(C)C)C1	microscopy	>1 µM
CC(C)(C)CCO[C@@H]1O[C@H](COS(=O)(=O)O)[C@@H](OS(=O)(=O)O)[C@H](O[C@@H]2O[C@H](COS(=O)(=O)O)[C@@H](OS(=O)(=O)O)[C@H](O[C@@H]3O[C@H](COS(=O)(=O)O)[C@@H](OS(=O)(=O)O)[C@H](O[C@@H]4O[C@H](COS(=O)(=O)O)[C@@H](OS(=O)(=O)O)[C@H](O[C@@H]5O[C@H](COS(=O)(=O)O)[C@@H](OS(=O)(=O)O)[C@H](OS(=O)(=O)O)[C@H]5OS(=O)(=O)O)[C@H]4OS(=O)(=O)O)[C@H]3OS(=O)(=O)O)[C@H]2OS(=O)(=O)O)[C@H]1OS(=O)(=O)O		>1000 µg/mL
CCOC(=O)c1cc(-c2cccc([N+](=O)[O-])c2)n(-c2cccc(OC)c2)c1C		33 µM
CN1CCn2c(nc(C(=O)NCc3ccc(F)cc3)c(O)c2=O)C(N(C)Cc2ccccc2)C1	microscopy	>10 µM
CN1C(=O)[C@@H](c2cc(Cl)c(O)c(Cl)c2)NC(=O)[C@@H]2NC(=O)[C@H](c3cc(Cl)c(O)c(Cl)c3)NC(=O)[C@@H](NC(=O)C(=O)c3cc(Cl)c(O)c(Cl)c3)Cc3c[nH]c4cc(ccc34)-c3cc2cc(c3O)Oc2ccc(cc2)C[C@H]1C(=O)N[C@@H](C(=O)O)c1ccc(O)cc1		>600 µM
Cc1nc2c(c(-c3ccc4c(c3)CCCO4)c1C(OC(C)(C)C)C(=O)O)CCCC2	ATP	>50 µM
Nc1nc(N)c2ncn([C@H]3CC[C@@H](CO)O3)c2n1		404 µM
CSCC[C@H](C(=O)N1CCNC[C@H]1c1c[nH]c2ccccc12)N1CCCN(C(C)C)CC1	MTT	>50 µM
COc1cccc(-c2cc(C(C)=O)c(C)n2-c2cccc(N=[N+]=[N-])c2)c1		8.7 µM